Compound potency records, mixed from different reports. Data source: NIAID ChemDB in PubChem.

Shared fields: growth or infection tests; organism: HIV-1; read by: cytopathic effect / XTT; read-out: EC50

Rows are shuffled and stem from different studies. An empty or dashed field is not shown. ECn: concentration that inhibits the pathogen or its effect by n%.

compound	changes	strain	cell line	result
O=C(NC(C(=O)O)c1ccccc1)c1ccccc1SSc1ccccc1C(=O)NC(C(=O)O)c1ccccc1	-	-	CEM	25 µM
CC(C)(C)NC(=O)[C@@H]1CN(Cc2cccnc2)CCN1C[C@@H](O)C[C@@H](Cc1ccccc1)C(=O)N[C@H]1c2ccccc2C[C@H]1O	-	IIIB	MT-2	0.004 µM
COc1ccc(/C=C2\CN(C)CC3=C2OC(N)=C(C#N)C3c2ccc(OC)cc2)cc1	-	RF	CEM + CEM-SS	>30.4 µM
Cc1ccnc2c1N(CN1CCN(C)CC1)C(=O)c1cccnc1N2C1CC1	-	-	CEM	0.44 µM
CN1C/C(=C\c2cccs2)C2=NN(C)C(c3cccs3)C2C1	-	RF	CEM + CEM-SS	>200 µM
O=C(Nc1ccccc1-c1nn(CN2CCNCC2)c(=S)n(CN2CCNCC2)c1=O)C(F)(F)F	-	RF	CEM	11.3 µg/mL
CC(C)(C)NC(=O)[C@@H]1C[C@@H]2CCCC[C@@H]2CN1C[C@@H](O)[C@H](Cc1ccccc1)NC(=O)[C@H](CC(N)=O)NC(=O)c1ccc2ccccc2n1	-	IIIB	MT-2	0.003 µM
CC(C)=CCOc1cc(CCc2cccc(O)c2)cc(O)c1CC=C(C)C	-	RF	CEM + CEM-SS	2 µg/mL
CC(C)=CCN1Cc2cc(Cl)cc3[nH]c(=S)n(c23)C[C@@H]1C	RT-Y188C	IIIB	CEM	3 µM
Cc1cn([C@H]2C[C@H](N=[N+]=[N-])[C@@H](CO)O2)c(=O)[nH]c1=O	-	-	MT-2 + MT2	0.002 µM
CC(C)=CCN1Cc2cccc3[nH]c(=S)n(c23)C[C@@H]1C	-	IIIB	AA5	0.1 µM
N#Cc1c(N)n(COC(CO)CO)c2ncnc(N)c12	-	-	MT-2 + MT2	360 µM
Nc1nc2c(ncn2[C@H]2CO[C@@H](CO)O2)c(=O)[nH]1	-	LAI	MT-2	3.4 µM
S=C(NCCc1ccccn1)Nc1ccc(Br)cn1	RT-L100I	118(RT-L100I)	MT-4	0.8 µM
C=CNC(=S)n1nc(-c2ccccc2NC(=O)C(F)(F)F)c(=O)n(C(=S)NC=C)c1=S	-	RF	CEM	7.92 µg/mL
Nc1nc(NC2CC2)c2ncn([C@H]3C=C[C@@H](CO)C3)c2n1	-	HXB2D	MT-2	0.0003 µM
N#Cc1c(Br)n(COC(CO)CO)c2ncnc(N)c12	-	-	MT-2 + MT2	300 µM
Nc1ccc(S(=O)(=O)c2ccc(N)cc2)cc1	-	RF	CEM + CEM-SS	>100 µg/mL
Cc1ccnc2c1N(CN1CCNCC1)C(=O)c1cccnc1N2C1CC1	-	-	CEM	0.62 µM
Cc1cn([C@H]2C[C@H](N=[N+]=[N-])[C@@H](COC(=O)C3CCC4C5CCC6=CC(=O)CCC6(C)C5C(O)CC34C)O2)c(=O)[nH]c1=O	-	-	CEM	0.567 µM
COc1ccc(/C=C2\CN(C)CC3=C2NC(=S)NC3c2ccc(OC)cc2)cc1	-	RF	CEM + CEM-SS	>6.8 µM
Cc1cn([C@H]2C[C@H](N=[N+]=[N-])[C@@H](CO)O2)c(=O)[nH]c1=O	-	HXB2D	MT-2	0.00018 µM
Fc1cccc(F)c1C1SCc2nc3ccccc3n21	-	IIIB	CEM + CEM-SS	1.28 µM
CCN(CC)c1ccc(NC(=O)c2ccccc2SSc2ccccc2C(=O)Nc2ccc(N(CC)CC)cc2)cc1	-	-	CEM	10 µM
Cc1ccnc2c1N(CN1CCN(c3cccc(Cl)c3)CC1)C(=O)c1cccnc1N2C1CC1	-	-	CEM	0.0318 µM
Nc1ncnc2c1ncn2CCOCP(=O)(O)O	-	IIIB	MT-2	13.4 µM
COc1ccc(N2CCN(CN3C(=O)c4cccnc4N(C4CC4)c4nccc(C)c43)CC2)cc1	-	-	CEM	0.12 µM
COc1ccc(/C=C2\CN(C)CC3C2=NN(c2ccccc2)C3c2ccc(OC)cc2)cc1	-	RF	CEM + CEM-SS	>200 µM
Cc1cn([C@H]2C[C@H](N=[N+]=[N-])[C@@H](CO)O2)c(=O)[nH]c1=O	-	IIIB	CEM + CEM-SS	0.003 µM
Fc1cccc(F)c1[C@H]1SCc2nc3ccccc3n21	-	RF	CEM + CEM-SS	0.21 µM
Cc1cn([C@H]2C[C@H](N=[N+]=[N-])[C@@H](CO)O2)c(=O)[nH]c1=O	-	SK1	CEM + CEM-SS	0.0037 µM
CC(C)=CCN1Cc2cc(Cl)cc3[nH]c(=S)n(c23)C[C@@H]1C	-	IIIB	MT-4	0.28 µM
Cc1cn([C@H]2C[C@H](N=[N+]=[N-])[C@@H](COC(=O)[C@@]3(O)CCC4C5CCC6=CC(=O)C=CC6(C)C5C(O)CC43C)O2)c(=O)[nH]c1=O	-	-	CEM	1.65 µM
CCOC(=O)CSc1nnc(-c2ccccc2NC(=O)C(F)(F)F)c(=O)[nH]1	-	RF	CEM	>62.5 µg/mL
Cc1ccc(F)cc1CNC(=O)[C@H]1N(C(=O)[C@@H](O)[C@H](Cc2ccccc2)NC(=O)c2cccc(O)c2C)CSC1(C)C	-	IIIB	CEM + CEM-SS	0.022 µg/mL
O=S1(c2ccccc2)=NC(=S)Nc2ccccc21	-	PM16	CEM + CEM-SS	5.11 µM
CCc1cc(NCc2nc3c(Cl)ccc(Cl)c3o2)c(=O)[nH]c1C	RT-Y181C	T3-16(RT-Y181C)	MT-4	>10 µM
O=[N+]([O-])c1ccccc1S(=O)(=O)c1ccccc1	-	IIIB	CEM + CEM-SS	1.94 µM
O=C(O)c1ccc(NC(=O)c2ccccc2SSc2ccccc2C(=O)Nc2ccc(C(=O)O)cc2)cc1	-	-	CEM	3 µM
O=C(O)c1c[nH]c2c(ccc3[nH]cc(C(=O)O)c(=O)c32)c1=O	-	RF	CEM + CEM-SS	>200 µM
Cc1ccc(/C=C2\CN(C)CC3=C2NC(=S)NC3c2ccc(C)cc2)cc1	-	RF	CEM + CEM-SS	>27.6 µM
CCCc1cc(=O)oc2c3c(c4c(c12)OC(C)(C)C=C4)O[C@H](C)[C@@H](C)[C@@H]3O	-	IIIB	CEM + CEM-SS	0.08 µM
O=C(Nc1ccc([N+](=O)[O-])cc1)c1ccccc1SSc1ccccc1C(=O)Nc1ccc([N+](=O)[O-])cc1	-	-	CEM	4 µM
Cc1cc(SC2=C(O)CC(C)(CCc3ccc(O)cc3)OC2=O)c(C(C)(C)C)cc1OS(=O)(=O)c1cn(C)cn1	-	IIIB	CEM	16 µM
Cc1cn([C@H]2C[C@H](N=[N+]=[N-])[C@@H](CO)O2)c(=O)[nH]c1=O	RT-Y181C	T3-16(RT-Y181C)	MT-4	0.006 µM
Cc1ccnc2c1NC(=O)c1cccnc1N2C1CC1	-	IIIB	CEMx174 + CEM	0.1 µM
Cc1ccnc2c1N(CN1CCN(c3ccc(Cl)cc3)CC1)C(=O)c1cccnc1N2C1CC1	-	-	CEM	0.0159 µM
Cc1ccc(/C=C2\CN(C)CC3C2=NN(c2ccccc2)C3c2ccc(C)cc2)cc1	-	RF	CEM + CEM-SS	>200 µM
CC(C)(C)OC(=O)N[C@@H](Cc1ccccc1)[C@H](O)CNC[C@@H](O)[C@H](Cc1ccccc1)NC(=O)OC(C)(C)C	-	RF	CEM + CEM-SS	0.05 µM
Fc1cccc(F)c1[C@@H]1SCc2nc3ccccc3n21	RT-Y188C	IIIB	CEM	13.87 µM

4 of the rows above, restated:

| compound | changes | strain | cell line | result |
|---|---|---|---|---|
| N#Cc1c(Br)n(COC(CO)CO)c2ncnc(N)c12 | - | - | MT-2 + MT2 | 300 µM |
| CC(C)=CCN1Cc2cc(Cl)cc3[nH]c(=S)n(c23)C[C@@H]1C | RT-Y188C | IIIB | CEM | 3 µM |
| COc1ccc(/C=C2\CN(C)CC3C2=NN(c2ccccc2)C3c2ccc(OC)cc2)cc1 | - | RF | CEM + CEM-SS | >200 µM |
| Cc1ccnc2c1N(CN1CCN(C)CC1)C(=O)c1cccnc1N2C1CC1 | - | - | CEM | 0.44 µM |